Columns and labels:
[1] = target: Porphyromonas endodontalis dipeptidyl peptidase 11, PeDPP11_(22-717) S652A (Porphyromonas endodontalis) (UniProt F8WQK8); assay: ITC; 25 °C (298 K)
[2] = target: Porphyromonas endodontalis dipeptidyl peptidase 11, PeDPP11_(22-717) S652A (Porphyromonas endodontalis) (UniProt F8WQK8); assay: ITC
[3] = target: Porphyromonas endodontalis dipeptidyl peptidase 11, PeDPP11_(22-717) S652A (Porphyromonas endodontalis) (UniProt F8WQK8); assay: ITC; 5 °C (278 K)
[4] = target: Porphyromonas endodontalis dipeptidyl peptidase 11, PeDPP11_(22-717) S652A (Porphyromonas endodontalis) (UniProt F8WQK8); assay: ITC; 20 °C (293 K)

Row | Substance | Kd [1] | Kd [2] | Kd [3] | Kd [4]
1 | dipeptide LD | 1800 nM | 1800 nM | – | –
2 | substrate peptide Leu-Asp-Val-Trp | 2800 nM | 2800 nM | 17300 nM | 5600 nM

From PMC5460201, “Bacterial protease uses distinct thermodynamic signatures for substrate recognition” (Scientific Reports, 2017)
